A mixed list of measured activities; the numbers were collected in NIAID ChemDB.

Shared fields: whole-cell or culture tests; agent: HIV-1

Blank or dashed fields: not listed here. ECn: concentration that inhibits the pathogen or its effect by n%. Conditions beyond the fields shown may differ between rows.

structure	changes	endpoint	read by	strain or isolate	cells	result
CCOC(=O)c1cc(C(=O)c2ccccc2)n2ccc(C(=O)NCc3ccco3)cc12	-	EC50	p24 / antigen	-	H9	19.3 µM
CC(C)C#CC1(C(C)C)NS(=O)(=O)Nc2ccc(Cl)cc21	-	EC90	-	RF	MT-2	0.643 µM
CCS(=O)(=O)N(C)c1nc(C(=O)NCc2ccc(F)cc2C(=O)NC)c(O)c2ncccc12	-	EC50	p24	-	MT-4	<5 µM
Cc1ccc(C)c(C(C(N)=O)S(=O)(=O)c2cccc[n+]2[O-])c1	-	EC50	syncytia	IIIB	CEM	>20 µg/mL
CCc1c(CC2CCCc3ccccc32)n(COCC=C(C)C)c(=O)[nH]c1=O	-	EC50	cytopathic effect / MTT	IIIB	MT-4	4 µM
CN(C)CC#CC1(C(F)(F)F)OC(=O)Nc2ccc(Cl)cc21	-	EC50	p24	IIIB	MT-4	<0.1 µM
Nn1c(-c2cccc(Br)c2)n[nH]c1=S	-	EC50	MTT	IIIB	MT-4	>75.4 µg/mL
CCOC(=O)c1cc(C(=O)c2ccc(C(F)(F)F)cc2)n2ccc(C(=O)NCc3ccccn3)cc12	-	EC50	p24 / antigen	-	H9	20.5 µM
Cc1ccc(C)c(C(Cl)S(=O)(=O)c2c(C)ccc[n+]2[O-])c1	-	EC50	syncytia	IIIB	CEM	>100 µg/mL
Nc1nc2c(ncn2[C@H]2C=C[C@@H](CO)C2)c(=O)[nH]1	-	EC50	cytopathic effect / XTT	IIIB	MT-2	0.15 µg/mL
CCC#CC1(C(C)C)NS(=O)(=O)Nc2ccc(Cl)cc21	-	EC50	-	RF	MT-2	<0.691 µM
Cc1ccc(C)c(C(C)Sc2cccc[n+]2[O-])c1	-	EC50	syncytia	IIIB	CEM	6 µg/mL
N#Cc1ccccc1C#CC1(C(F)(F)F)OC(=O)Nc2ccc(Cl)cc21	-	EC50	p24	IIIB	MT-4	<0.006 µM
Nc1c2ccccc2nc2ccccc12	-	EC50	-	-	Jurkat cells	>50 µM
CCC#CC1(C2CC2)NS(=O)(=O)Nc2ccc(Cl)cc21	-	EC50	-	RF	MT-2	<0.611 µM
CN[C@H](C)C(=S)N[C@H]1CCSC2CC(C)(C)[C@@H](C(=O)N[C@@H](COCc3cn(COC[C@@H](NC(=O)[C@H]4N5C(=O)[C@@H](NC(=S)[C@@H](C)NC)CCSC5CC4(C)C)c4ccccc4)nn3)c3ccccc3)N2C1=O	-	EC50	fluorescence	-	Jurkat cells	0.2433 µM
c1ccc(COC2C3COC(O3)C(OCc3ccccc3)C2OCc2ccccc2)cc1	-	EC50	MTT	-	MT-4	0.05 µg/mL
Clc1ccc(-c2nnc3sc(-c4cccnc4)nn23)cc1Cl	-	EC50	MTT	IIIB	MT-4	>80.05 µg/mL
CCCCCCCC/C=C\CCCCCCCOCCOP(=O)(O)CO[C@H](CO)Cn1cnc2c(N)ncnc21	RT	EC50	p24	LAI	MT-2	0.008 µM
CCNC(=O)c1cc(F)ccc1CNC(=O)c1nc(N2CCCCS2(=O)=O)c2cccnc2c1O	-	EC50	p24	-	MT-4	<5 µM
O=C1NCC(CCC2(C(F)(F)F)OC(=O)Nc3ccc(Cl)cc32)O1	-	EC50	p24	IIIB	MT-4	<78 µM
Nc1cccc2cc3ccccc3nc12	-	EC50	MTT	Latently infected cell	ACH2	>50 µM
O=C(Nc1ccccc1)c1cc(S(=O)(=O)Nc2nc3ncccc3[nH]2)c(SSc2cc(Cl)c(C(=O)Nc3ccccc3)cc2S(=O)(=O)Nc2nc3ncccc3[nH]2)cc1Cl	-	EC50	cytopathic effect / MTT	-	CEM + CEM-SS	113 µM
CCCCCc1ccc2ccccc2n1	-	EC50	-	-	CEM-4fx	2.9 µM
CCN1c2ncc(CCOc3ccc(C(=O)Nc4cccn(CC(=O)O)c4=O)cc3C)cc2C(=O)N(C)c2cccnc21	-	EC50	p24	IIIB	C8166	>0.05 µM
Cc1ccccc1CS(=O)c1cccc[n+]1[O-]	-	EC50	syncytia	IIIB	CEM	≥20 µg/mL
C[Si](C)(C)C#Cc1ccc2ccccc2n1	-	EC50	-	-	CEM-4fx	0.5 µM
Nc1nc(Cl)c2ncn([C@H]3C=C[C@@H](CO)C3)c2n1	-	EC50	cytopathic effect / XTT	IIIB	MT-2	0.41 µg/mL
CN[C@@H](C)C(=S)N[C@@H]1CCSC2CC(C)(C)[C@H](C(=O)N[C@@H](COCCn3cc(COC[C@H](NC(=O)[C@H]4N5C(=O)[C@@H](NC(=S)[C@@H](C)NC)CCSC5CC4(C)C)c4ccccc4)nn3)c3ccccc3)N2C1=O	-	EC50	fluorescence	-	Jurkat cells	0.178 µM
O=C1Nc2ccc(Cl)cc2[C@](C#Cc2ccccc2)(C(F)(F)F)O1	-	EC95	p24	IIIB	MT-4	>0.2 µM
CC(c1ccc(Cl)cc1)S(=O)c1cccc[n+]1[O-]	-	EC50	syncytia	IIIB	CEM	>0.16 µg/mL
Cc1cc2ccccc2c(-c2ccc3c4c(ccnc24)CCO3)c1[C@H](OC(C)(C)C)C(=O)O	-	EC50	p24	BaL	PBMC	0.015 µM
C[C@H]1CO[C@@H]2Cn3cc(C(=O)NCc4ccc(F)cc4F)c(=O)c(O)c3C(=O)N12	3'-PPT mutations	EC50	luminescence	LAI	TZM-bl	0.00037 µM
C#Cc1cnc(C(=O)c2ccccc2)nc1C(=O)c1ccccc1	-	EC50	-	LAI	PBMC	2.1 µM
O=S(=O)(Cc1ccccc1)c1ncccc1O	-	EC50	syncytia	IIIB	CEM	60 µg/mL
COCC#CC1(C(F)(F)F)OC(=O)Nc2ccc(Cl)cc21	-	EC50	p24	IIIB	MT-4	<0.05 µM
COc1cc(C)c(-c2ccc(O)c3c2C[C@@H](C)N[C@@H]3C)c2ccc(-c3ccc4c(-c5ccc(O)c6c5C[C@@H](C)N[C@@H]6C)c(C)cc(OC)c4c3O)c(O)c12	-	EC50	-	RF	CEM	27 µg/mL
Cc1cn([C@H]2C[C@H](N=[N+]=[N-])[C@@H](CO)O2)c(=O)[nH]c1=O	-	EC50	luminescence	UG070	TZM-bl	0.01 µg/mL
O=C/C=C/c1ccc2ccccc2n1	-	EC50	-	-	CEM-4fx	0.5 µM
CCCCCCCCCCCCCCCCCCOCCOP(=O)(O)CO[C@H](CO)Cn1cnc2c(N)ncnc21	RT-D67N K70R T215Y K219Q	EC50	p24	4xAZT	MT-2	0.00001 µM
OC[C@H]1O[C@H](c2cc(Cl)c(F)cc2F)C[C@@H]1O	-	EC50	syncytia	IIIB	CEM	>250 µM
CCCCCCCCCCCCCCCCc1ccc2ccccc2n1	-	EC50	-	-	CEM-4fx	>300 µM
Clc1ccc(-c2nnc3sc(-c4cccs4)nn23)cc1Cl	-	EC50	MTT	IIIB	MT-4	>92.7 µg/mL
CCc1c(C(=O)c2cc(C)cc(C)c2)n(CC2CC=CC2)c(=O)[nH]c1=O	-	EC50	-	IIIB	-	0.0017 µM
COC(=O)[C@H](C)NP(=O)(OC[C@@H]1C=C[C@H](n2cc(C)c(=O)[nH]c2=O)O1)Oc1ccc(Br)cc1	-	EC50	p24	IIIB	CEM + CEM TK-	0.044 µM
CCN1c2ncc(CCOc3ccc(NC(=O)C4CC4C(=O)O)cc3C)cc2C(=O)N(C)c2cccnc21	-	EC50	p24	IIIB	C8166	<0.01 µM
Cc1ccc[n+]([O-])c1S(=O)(=O)C(C)c1cccc([N+](=O)[O-])c1C	-	EC50	syncytia	IIIB	CEM	11 µg/mL
CN[C@@H](C)C(=O)N[C@H]1CCSC2CC(C)(C)[C@@H](C(=O)N[C@H]3c4ccccc4C[C@H]3OCCCCCCCCO[C@@H]3Cc4ccccc4[C@@H]3NC(=O)[C@H]3N4C(=O)[C@@H](NC(=O)[C@H](C)NC)CCSC4CC3(C)C)N2C1=O	-	EC50	fluorescence	-	Jurkat cells	0.0116 µM
CN(C)C(=O)c1cc(F)ccc1CNC(=O)c1nc(N(C)S(C)(=O)=O)c2cccnc2c1O	-	EC95	p24	-	MT-4	<5 µM
CCN1c2ncc(CCOc3ccc(Nc4cccc(CC(=O)O)c4)cc3C)cc2C(=O)N(C)c2cccnc21	-	EC50	p24	IIIB	C8166	<0.01 µM
Nc1ncnc2c1ncn2[C@H]1C=C[C@@H](CO)C1	-	EC50	cytopathic effect / XTT	IIIB	MT-2	2.3 µg/mL
Cc1ccc(C)c(C(Br)S(=O)(=O)c2cccc[n+]2[O-])c1	-	EC50	syncytia	IIIB	CEM	20.7 µg/mL
Oc1ccc(-c2nnc3sc(-c4ccc[nH]4)nn23)c(Cl)c1Cl	-	EC50	MTT	IIIB	MT-4	>68.48 µg/mL
COc1ccc(CSc2nc(C(C)c3c(F)cccc3F)c(C)c(=O)[nH]2)cc1	-	EC50	MTT	IIIB	MT-4	0.000025 µM
Nc1ccn([C@H]2O[C@@H](CO)C=C2F)c(=O)n1	-	EC50	RT activity	LAV	PBMC	0.51 µM
Cc1ccc(C)c(CS(=O)(=O)c2ncccc2O)c1	-	EC50	syncytia	IIIB	CEM	24 µg/mL
C=CCOCn1c(CC2CCCc3ccccc32)c(CC)c(=O)[nH]c1=O	RT-Y181C	EC50	cytopathic effect / MTT	N119 RT-Y181C NNRTI-resistant	MT-4	>100 µM
COC(=O)[C@H](C)NP(=O)(OC[C@@H]1C=C[C@H](n2cc(C)c(=O)[nH]c2=O)O1)Oc1ccccc1	-	EC50	RT activity	IIIB	CEM + CEM TK-	0.133 µM
CCOC(=O)c1cc(C(=O)NCc2ccccn2)n2ccc(C(=O)c3ccco3)cc12	-	EC50	p24 / antigen	-	H9	42.1 µM
Cc1cc(/C=C/C#N)cc(C)c1Nc1ccnc(Nc2ccc(C#N)cc2)n1	-	EC50	luminescence	LAI	TZM-bl	0.00042 µM
CCCCCCCCCCCC(Sc1cccc[n+]1[O-])c1cc(C)ccc1C	-	EC50	syncytia	IIIB	CEM	>4 µg/mL
CCN1c2ncc(CCOc3ccc(-c4cc[n+](C)cc4)cc3C)cc2C(=O)N(C)c2cccnc21.[O-]C(F)(F)F	RT-K103N Y181C	EC50	p24	-	C8166	<0.01 µM
Clc1ccc(-c2nnc3sc(-c4ccco4)nn23)cc1Cl	-	EC50	MTT	IIIB	MT-4	>27.51 µg/mL
CNC(=O)c1cc(F)ccc1CNC(=O)c1nc(N2CCCN(C)S2(=O)=O)c2cccnc2c1O	-	EC95	p24	-	MT-4	<5 µM
Cc1ccccc1C(Sc1cccc[n+]1[O-])C(N)=O	-	EC50	syncytia	IIIB	CEM	>100 µg/mL
COc1ncc(I)c(OC)n1	-	EC50	-	LAI	PBMC	>100 µM
O=S(Cc1ccc(F)cc1)c1cccc[n+]1[O-]	-	EC50	syncytia	IIIB	CEM	≥20 µg/mL
Clc1ccc(-c2nnc3sc(-c4ccc[nH]4)nn23)cc1Cl	-	EC50	MTT	IIIB	MT-4	>68.48 µg/mL
O=C1Nc2ccc(Cl)cc2C(C#Cc2ccccc2)(C(F)(F)F)O1	-	EC50	p24	IIIB	MT-4	<0.025 µM
N#Cc1cc(Cl)cc(Oc2c(Br)ccc(CC(=O)Nc3ccc(S(N)(=O)=O)cc3Cl)c2F)c1	L100I V106I Y181C Y188L	EC50	-	-	MT-4	>0.4 µM
Cc1ccccc1C(C#N)S(=O)c1cccc[n+]1[O-]	-	EC50	syncytia	IIIB	CEM	>0.16 µg/mL
Cc1cn([C@H]2C[C@H](N=[N+]=[N-])[C@@H](CO)O2)c(=O)[nH]c1=O	-	EC50	fluorescence	BaL	C8166	0.17 µM
Clc1ccc(-c2nn3c(-c4cccc(Br)c4)nnc3s2)cc1Cl	-	EC50	MTT	IIIB	MT-4	>4.12 µg/mL
O=c1[nH]c(=O)n([C@H]2C[C@H](O)[C@@H](CO)O2)cc1C12B3B4B5B6B(B3B1B42)B1B5C61	-	EC50	-	LAI	PBMC	69.8 µM
O=C1Nc2ccc(Cl)cc2[C@@](C#CC2CC2)(C(F)(F)F)N1	-	EC50	-	RF	MT-2	<0.002 µM